In patent US20100284914A1 (priority 2005, published 2010):

Experiments:
Assay in all cases: microbe, parasite or virus in culture
[1] = system: Aspergillus fumigatus 64026; conditions: Aspergillus fumigatus, 64026, 72 h, read-out: MIC
[2] = system: Candida krusei 603; conditions: Pichia kudriavzevii
[3] = system: Candida krusei 638; conditions: Pichia kudriavzevii
[4] = system: Candida glabrata 646; conditions: Nakaseomyces glabratus
[5] = system: Candida glabrata 648; conditions: Nakaseomyces glabratus
[6] = system: Candida glabrata 566; conditions: Nakaseomyces glabratus
[7] = system: Candida glabrata 578; conditions: Nakaseomyces glabratus
[8] = system: Candida glabrata 572; conditions: Nakaseomyces glabratus

C[N+](C)([BH2-]C#N)CCCCCCCCCC[N+](C)(C)[BH2-]C#N [K-J, N,N,N′,N′-tetramethyldecane-1,10-diamine bis-cyanoborane] showed an MIC [1] of 817 µM (≈ 250 µg/mL).
For CCCCCCCCCCC[N+](C)(C)[BH-](F)C#N (centres unmarked) [K-I4, dimethyl-undecyl-amine cyanofluoroborane], the MIC [1] was 129 µM (≈ 33.1 µg/mL).
In the case of CCCCCCCCCCC[N+](C)(C)[BH-](Br)C#N (centres unmarked) [K-I1, dimethyl-undecyl-amine cyanobromoborane], the MIC [1] is reported as 131 µM (≈ 41.5 µg/mL).
Work on CCCCCCCCCCC[N+](C)(C)[B-](Br)(Br)C#N [K-I2, dimethyl-undecyl-amine cyanodibromoborane] yielded an MIC [1] of 79 µM (≈ 31.3 µg/mL), an MIC [2] of 10.1 µM (≈ 3.98 µg/mL) and an MIC [3] of 10.1 µM (≈ 3.98 µg/mL). For the same compound, the MIC [4] was 20.2 µM (≈ 8 µg/mL), the MIC [5] was 20.2 µM (≈ 8 µg/mL) and the MIC [6] was 20.2 µM (≈ 8 µg/mL). For the same compound, the MIC [7] was 40.4 µM (≈ 16 µg/mL) and the MIC [8] was 40.4 µM (≈ 16 µg/mL).

In brackets after ≈: the same amount, converted by molar mass.
